Anti-infective test results gathered from many reports (values: NIAID ChemDB through PubChem).

Common to all: toxicity to cultured cells; cell line: E6SM; read-out: CC50

Conditions beyond the fields shown may differ between rows. CCn is the concentration with n% toxicity to the cells. Two numbers with a dash give a range or band.

compound	value
COc1cc2c(cc1OC)[C@@H]1C(N)CSCON1CC2	≥100 µg/mL
O=c1[nH]c(=O)n([C@@H]2CO[C@H](CO)[C@@H](O)C2)cc1-c1cccs1	>400 µg/mL
Nc1ccn(CC[C@H](O)CCO)c(=O)n1	>400 µg/mL
OC[C@H]1O[C@@H](c2cc(C(F)(F)F)c(F)cc2F)C[C@@H]1O	9 µg/mL
O=c1ccn([C@@H]2C[C@H](CO)C[C@H]2CO)c(=O)[nH]1	>200 µg/mL
Nc1nccc2c1ncn2[C@@H]1C[C@H](CO)[C@@H](O)[C@H]1O	100 µg/mL
COC(=O)[C@H](C)NP(=O)(OC[C@H]1O[C@@H](n2cc(/C=C/Br)c(=O)[nH]c2=O)C[C@@H]1O)Oc1ccccc1	>400 µM
Nc1nc2c(ncn2[C@@H]2C=C[C@H](CO)[C@@H](O)C2)c(=O)[nH]1	>400 µg/mL
NC(=O)CSc1ncnc2c1cnn2CCCCO	>400 µg/mL
O=c1[nH]c(=O)n([C@@H]2C[C@H](CO)C[C@H]2CO)cc1I	>200 µg/mL
NC(=O)CSc1ncnc2c1cnn2COCCO	>400 µg/mL
O=c1[nH]c(=O)n([C@@H]2CO[C@H](CO)[C@@H](O)C2)cc1Cl	>400 µg/mL
CC1(C)[C@@H](CO)CC[C@@]1(C)Cn1cnc2c(N)ncnc21	>400 µg/mL
COC(=O)[C@H](C)NP(=O)(OC[C@H]1O[C@@H](n2cc(/C=C/Br)c(=O)[nH]c2=O)C[C@@H]1O)Oc1ccc(Cl)cc1	400 µM
Nc1nc2c(ncn2[C@H]2C=C[C@@H](CO)[C@H](O)C2)c(=O)[nH]1	>16 µg/mL
CCn1nc(CC(=O)NN=C(C)C)nc1C	>400 µg/mL
Nc1ncnc2c1ncn2CC[C@H](O)CCO	>400 µg/mL
COc1ccc(-n2c(Cc3nc4n(n3)CCCC4)n[nH]c2=S)cc1	400 µg/mL
CC(C)CS[C@@H]1C=C[C@H](n2cnc3c(N)ncnc32)C1	16–80 µg/mL
Cc1nc(Cc2n[nH]c(=S)n2-c2ccccc2)nn1C	400 µg/mL
Nc1ncnc2c1ncn2[C@@H]1C=C(CO)[C@@H](O)[C@H]1O	70 µg/mL
CC(Sc1ncnc2c1cnn2CCCCO)C(N)=O	>400 µg/mL
CC1(C)[C@@H](CO)CC[C@@]1(C)Cn1cc(I)c(=O)[nH]c1=O	>400 µg/mL
CO[C@H](CO)[C@@H](O)CCn1cnc2c(=O)[nH]c(N)nc21	>400 µg/mL
CCn1nc(CC(=O)N/N=C/c2ccco2)nc1C	>400 µg/mL
Cc1cn(CC[C@H](O)CCO)c(=O)[nH]c1=O	>400 µg/mL
CC1(C)[C@@H](CO)CC[C@@]1(C)Cn1nnc2c(Cl)ncnc21	>400 µg/mL
CCn1nc(Cc2n[nH]c(=S)o2)nc1C	>400 µg/mL